Measured values from patent US9132129B2, “Antiviral compounds” (KATHOLIEKE UNIVERSITEIT LEUVEN, priority 2010, dated 2015).

What was measured:
[1] = molecular target: His6-tagged HIV-1 integrase / flag-LEDGF/p75 interaction (Human immunodeficiency virus type 1 group M subtype B (isolate NY5) (HIV-1), UniProt P12497); assay: Alpha Screen interaction assay (LEDGF-integrase interaction); format: binding; settings: His6-tagged integrase 300 nM, flag-LEDGF/p75 100 nM; read-out: Alphascreen IC50
[2] = molecular target: His6-tagged integrase / MBP-fused Δ325 integrase binding domain of LEDGF (Human immunodeficiency virus type 1 group M subtype B (isolate NY5) (HIV-1), UniProt P12497); assay: HTRF interaction assay (LEDGF-integrase interaction); settings: His6-tagged integrase 78 nM
Protocol: Afterwards 8.3 nM of europium cryptate conjugated anti-MBP monoclonal antibody and 17 nM anti-His antibody conjugated with the acceptor fluorophore d2.

In the case of `CCCC(C(=O)O)c1c(C)nc2cc3c(cc2c1-c1ccc(C)cc1)CCC3` (centres unmarked) [Cpd012, 2-(2-methyl-4-p-tolyl-7,8-dihydro-6H-cyclopenta[g]quinolin-3-yl)pentanoic acid], the IC50 [1] is reported as 1080 nM and the IC50 [2] is reported as 4400 nM.
